Results from paper PMC9114799, “In vitro Evaluation of Isoniazid Derivatives as Potential Agents Against Drug-Resistant Tuberculosis” (Frontiers in Pharmacology, 2022).

Tested on: M. tuberculosis H37Rv ATCC27294 (wt)
Type: cell-based
Conditions: SI = IC50 (HepG2)/MIC (wt)

Row | Structure (SMILES) | SI (wt)
1 | COC(=O)c1ccc(/C=N/NC(=O)c2ccncc2)cc1 [Compound N33, methyl (E)-4-((2-isonicotinoylhydrazineylidene)methyl)benzoate] | >24
2 | COC(=O)c1ccc(CNNC(=O)c2ccncc2)cc1 [Compound N33red, methyl 4-((2-isonicotinoylhydrazinyl)methyl)benzoate] | >100
3 | O=C(N/N=C/c1ccc(Oc2ccccc2)cc1)c1ccncc1 [Compound N34, (E)-N'-(4-phenoxybenzylidene)isonicotinohydrazide] | >210
4 | O=C(NNCc1ccc(Oc2ccccc2)cc1)c1ccncc1 [Compound N34red, N'-(4-phenoxybenzyl)isonicotinohydrazide] | 48.5
5 | NNC(=O)c1ccncc1 [INH, isonicotinoylhydrazide, reference compound] | >690
6 | CCCCCCCCCC(=O)NNC(=O)c1ccncc1 [INH-C10, N′-decanoylisonicotinoylhydrazide] | >66
